From ChEMBL document CHEMBL3988442, “University of Dundee, Small-Polar-MMV Screening Library” (2021).

Mtb glucose medium: 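Growth of Mycobacterium tuberculosis over 3 days (7H9 medium with glucose and tyloxapol); the read-out is not stated. Compounds at 50 µM. Higher reads as more growth inhibition (inferred: compounds with an IC50 in retests scored well above the rest). About 69,000 compounds were tested under these conditions; 1.1% (about 760) showed 50% or more at least once.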
Mtb cholesterol medium: 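Phenotypic screen: M. tuberculosis growth, cholesterol and DPPC medium, 4 days; the read-out is not stated. Concentration: 50 µM. The record gives no direction; compounds that gave an IC50 in retests scored well above the rest, so higher reads as more growth inhibition. Of about 69,000 compounds tested this way, about 370 (0.54%) reached 50% or more in at least one test.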

Values are the deposited “Percent Effect”, in %. The record does not define 0% and 100%; most values in the screen are far below 50% and negative numbers occur (in some assays of this library far below -100). This is part of a subset picked to be rich in strong results. Two or more numbers in one place are separate tests of the same structure; such repeats can differ widely. A dash means the value is not listed here; it may have been measured.

compound,Mtb glucose medium,Mtb cholesterol medium
CCN1C(=O)C2(CCOCC2)c2cc(NC(=O)c3cnoc3C)ccc21,53.38 and -1.818,-
Cc1nsc(C(=O)NCCc2ccc(Cl)cc2)n1,47.89,62.99
CC(NC(=O)CCn1cccn1)c1cccs1 (stereo not shown),9.081,-3.666
Cc1ncsc1CCC(=O)N1CCn2cccc2C1c1cccnc1 (stereo not shown),-,4.754
Cc1ccc(CC(=O)NCC(O)c2cccc(C(F)(F)F)c2)cn1 (stereo not shown),-2.239,-
CN(CCc1ccncc1)Cc1nccn1Cc1ccccc1,-12.02,-
CCNC(=O)CCCC(=O)N1CCc2cc(Cl)cc(Cl)c2C1,71.36,-
Cc1ccc(NC2CCCN(Cc3ccc(Cl)cc3)C2)nn1 (stereo not shown),66.25,64.21 and 80.04
COCCNc1nc(-c2ccc(S(=O)(=O)N3CCCCCC3)cc2)cs1,39.15,17.13
COCCC(=O)N1CCC(Nc2ncc(Cl)cn2)CC1,13.09,9.644
CCOC(=O)CSc1ccc(-c2nc(CC)no2)cn1,68.07,-
FC(F)(F)COCCN1CCN(c2ccc3nncn3n2)CC1,22.48,-
Cc1nnc(N2CC[C@@H](OCC3CC3)[C@@H](Cc3ccccc3)C2)s1.O=C(O)C(F)(F)F,49.11 and 60.38,34.21
O=C(Nc1ccc(F)cc1)NC1(CCO)CCOCC1,4.883,-
CCOc1cc(C)c(-c2cc(N)[nH]n2)cc1OCC,20.78,-2.061
CCN1CCC(CC(=O)NC[C@H]2CCc3ccccc3O2)CC1,6.31 and 7.633,-0.1835
c1nc(-c2nc(C3CCOC3)no2)cs1 (stereo not shown),-,-25.43 and -6.622
Fc1ccc(CNCCn2cccn2)c(Cl)c1,-,2.696
Cl.NC(Cc1nc(-c2ccccc2)no1)c1ccccc1 (stereo not shown),16.26 and 10.86,-
CS(=O)(=O)NC[C@H]1Cn2c(-c3ccccc3)cnc2CO1,12.43 and 17.94,-
Cn1ncnc1NCc1ccc(F)cc1,4.322,-7.168
COc1ccc(C(=O)Nc2cccc(SC)c2)c(OC)n1,-,-34.16
COCCCNC(=O)Cc1cc(-c2ccccc2)on1,22.42,-5.936
CCCOc1ccc2c(c1)OCC(C(=O)NC(C)Cn1cccn1)=C2 (stereo not shown),24.35,7.228
Cc1cc(C)nc(NCCSc2cnn[nH]2)n1,38,-
Cc1ccc(-n2cc(C)cn2)c(NC(=O)NC2(C)CCOC2)c1 (stereo not shown),18.29,-
Cc1nc(CCN2CCC(Oc3ccccc3F)CC2)c(C)s1,14.93,-
N#Cc1ncn(CCC(=O)Nc2ccc(Cl)cc2F)n1,-,-16.45
COc1ccc(C)cc1C(C)NC(=O)CCn1cncn1 (stereo not shown),-10.75,-
Cc1cccc(-c2noc([C@@H]3Cc4nc[nH]c4CN3)n2)c1,41.68 and 51.53,-
COc1ccc(CN2CC[C@H](O)[C@@H]2Cc2cnn(C)c2)cc1.O=C(O)C(F)(F)F,-,-14.55 and -9.204
Cn1ncc2c1C(COCC1CC1)CN(Cc1ccsc1)C2 (stereo not shown),69.72,-
O=C(O)C(F)(F)F.c1cnc(N2CC[C@@H](OCC3CC3)[C@@H]2Cc2cccnc2)nc1,-,51.57
COCCN(C)CC1CCCN1S(=O)(=O)Cc1ccccc1F (stereo not shown),-29.96 and -5.393,-
Cc1cc(C2CCCN(CC(=O)Nc3nc4c(s3)CCC4)C2)n[nH]1 (stereo not shown),-,51.91
NC(=O)C(NC(=O)c1cc(Br)c[nH]1)c1ccccc1 (stereo not shown),2.334,-
CCS(=O)(=O)c1ccc2c(c1)OCCCO2,-16.16,-0.3374
O=C(c1ccnn1COc1ccc(Cl)cc1)N1CCCC1,83.89 and 8.065,-
COc1ccc(OC)c(CNc2nnc(C(C)(C)C)o2)c1,6.882,9.662
[H][C@@]12CCCO[C@]1([H])[C@H](NC(=O)C1CCC1)CN(Cc1ccoc1)C2,-,-6.984
CCn1nc(C)c(NC(=O)c2cc(NC(=O)C3CC3)n(C)n2)c1C,-3.45,-
COCc1noc(Cn2ccc3ncccc3c2=O)n1,9.858,-
Cc1cc(C(=O)NCC(C)N2CCc3ccccc32)on1 (stereo not shown),-3.536,-
CC(C)CSCCCNC(=O)C1CCC1,-10.33,-
Cc1cc(NC2CCC(=O)N(C)C2)n2nccc2n1 (stereo not shown),-,73.77

Repeated from the top, 2 entries:

compound	Mtb glucose medium	Mtb cholesterol medium
CCN1C(=O)C2(CCOCC2)c2cc(NC(=O)c3cnoc3C)ccc21	53.38 and -1.818	-
Cc1nsc(C(=O)NCCc2ccc(Cl)cc2)n1	47.89	62.99